Data from the NIST ThermoML archive (doi:10.1021/je034263v).
Numbers after ± are expanded uncertainties.

Tests used:
[1] = Liquid; for mass density / viscosity: 101.33 kPa
[2] = refractive index (Na D-line) (dimensionless); settings: 101.33 kPa, Liquid, Standard Abbe refractometry

O=P(Cl)(Cl)c1ccccc1 [phenylphosphonic dichloride]
Settings	mass density [kg/m3]	refractive index	vapor or sublimation pressure [kPa]	viscosity [mPa·s]
[1], 293.17 K	1400 ± 1.4	–	–	–
[1], 293.21 K	–	–	–	4.687 ± 0.2
[1], 299.19 K	1394.9 ± 1.5	–	–	–
[1], 299.58 K	–	–	–	4.143 ± 0.18
[1], 303.25 K	1390.8 ± 1.5	–	–	–
[1], 303.77 K	–	–	–	3.674 ± 0.16
[1], 307.97 K	–	–	–	3.331 ± 0.15
[1], 309.05 K	1384.8 ± 1.6	–	–	–
[1], 312.95 K	–	–	–	2.979 ± 0.13
[1], 313.75 K	1380.1 ± 1.6	–	–	–
[1], 318.95 K	–	–	–	2.642 ± 0.12
[1], 319.25 K	1373.9 ± 1.6	–	–	–
[1], 322.75 K	–	–	–	2.451 ± 0.11
[1], 323.31 K	1369.7 ± 1.7	–	–	–
[1], 327.85 K	–	–	–	2.247 ± 0.1
[1], 329.4 K	1364.3 ± 1.7	–	–	–
[1], 332.35 K	–	–	–	2.046 ± 0.094
[1], 334.75 K	1358.7 ± 1.8	–	–	–
[1], 338.25 K	–	–	–	1.873 ± 0.087
[1], 338.85 K	1354.3 ± 1.8	–	–	–
[1], 341.85 K	–	–	–	1.77 ± 0.082
[1], 342.85 K	1350.4 ± 1.8	–	–	–
[1], 377.15 K	–	–	0.529 ± 0.082	–
[1], 382.65 K	–	–	0.646 ± 0.096	–
[1], 387.96 K	–	–	0.813 ± 0.12	–
[1], 393.09 K	–	–	1.031 ± 0.14	–
[1], 397.4 K	–	–	1.277 ± 0.17	–
[1], 402.6 K	–	–	1.535 ± 0.16	–
[1], 410.21 K	–	–	2.011 ± 0.17	–
[1], 413.57 K	–	–	2.266 ± 0.18	–
[1], 415.95 K	–	–	2.693 ± 0.19	–
[1], 419.63 K	–	–	3.136 ± 0.2	–
[1], 424.32 K	–	–	3.788 ± 0.22	–
[1], 428.54 K	–	–	4.226 ± 0.23	–
[1], 431.35 K	–	–	5 ± 0.25	–
[1], 435.95 K	–	–	5.666 ± 0.27	–
[1], 439.85 K	–	–	6.506 ± 0.29	–
[1], 442.85 K	–	–	7.533 ± 0.31	–
[1], 446.35 K	–	–	7.826 ± 0.32	–
[1], 448.84 K	–	–	8.893 ± 0.34	–
[1], 456.05 K	–	–	10.53 ± 0.39	–
[1], 457.65 K	–	–	11.53 ± 0.41	–
[2], 298.15 K	–	1.5586 ± 0.0007	–	–

ClP(Cl)c1ccccc1 [dichlorophenylphosphine]
Settings	refractive index	vapor or sublimation pressure [kPa]
[1], 349.26 K	–	0.614 ± 0.092
[1], 352.16 K	–	0.719 ± 0.11
[1], 355.14 K	–	0.842 ± 0.12
[1], 357.45 K	–	0.949 ± 0.13
[1], 360.35 K	–	1.099 ± 0.15
[1], 363.46 K	–	1.282 ± 0.17
[1], 366.4 K	–	1.476 ± 0.16
[1], 369.51 K	–	1.708 ± 0.17
[1], 374.35 K	–	2.126 ± 0.18
[1], 377.89 K	–	2.483 ± 0.19
[1], 380.29 K	–	2.751 ± 0.19
[1], 383.46 K	–	3.141 ± 0.2
[1], 388.15 K	–	3.891 ± 0.22
[1], 392.55 K	–	4.466 ± 0.24
[1], 395.55 K	–	5.321 ± 0.26
[1], 398.35 K	–	5.853 ± 0.27
[1], 402.05 K	–	6.279 ± 0.28
[1], 404.85 K	–	6.866 ± 0.3
[1], 408.49 K	–	7.653 ± 0.32
[1], 412.55 K	–	9.346 ± 0.36
[1], 414.04 K	–	9.813 ± 0.37
[1], 415.05 K	–	10.19 ± 0.39
[1], 418.03 K	–	11.39 ± 0.41
[1], 420.25 K	–	12.28 ± 0.43
[1], 424.25 K	–	12.97 ± 0.45
[1], 426.06 K	–	13.91 ± 0.48
[2], 293.15 K	1.595 ± 0.0007	–
